# Experimental data published in PMC9002018 (Frontiers in Veterinary Science, 2022).
# Some peptides are written in HELM: one residue between dots, names in brackets for other building blocks, links after the first $.
# Assay: peptide made by a vendor (Fmoc solid-phase peptide synthesis)
# Details: whole synthesis
substance,measurement,value
PEPTIDE1{I.N.W.K.G.I.A.A.M.A.K.K.L.L.[am]}$$$$V2.0,final purity (method not given),98%
